Consider three molecules from patent US20210292393A1 (published 2021).

Experiment [1] deals with SARS-CoV-2 full-length spike protein on pseudotyped lentivirus (SARS-CoV-2). Nature of the experiment: cell-based or functional assay.
Experiment [2] has as its target T1, SARS-CoV-2 spike protein (nCoV-S Spike Protein Trimer, NIH) (SARS-CoV-2).
T1 construct: also called S protein
Put plainly: HT-SPR (Carterra LSA), mAb on chip, SARS-CoV-2 spike protein titrated, 37 C.

Experiment [3] has as its target T1, SARS-CoV-2 spike protein (nCoV-S Spike …). Put plainly: HT-SPR (Carterra LSA), mAb on chip, SARS-CoV-2 spike protein titrated, 25 C.
Experiment [4] concerns the target T2, SARS-CoV-2 spike protein (SARS-CoV-2).
T2 construct: also called SARS-CoV-2 S protein; antigen of interest
Nature of the experiment: HT-SPR, Carterra LSA; mAb coupled to chip, antigen injected; 1:1 fit.

B1: anti-SARS-CoV-2 antibody 540 (antibody, V domains shown)
VH: EVQLVESGGGLVKPGGSLRLSCAASGFTFSNAWMSWVRQAPGKGLEWVGHIKSKTDGGTTDYAAPVKGRFTISRDDSKNTLYLQMNSLKTEDTAVYYCTREPYYFDYWGQGTLVTVSS
VL: [gap - about 100 residues]GQGTKLEIKR
On to B1, for which, in experiment [1], the “IC50 (pseudoneutralization)” value was greater than 50 µg/mL and the “IC80 (pseudoneutralization)” value was greater than 50 µg/mL.

B2: antibody 540 (antibody, V domains shown)
VH: EVQLVESGGGLVKPGGSLRLSCAASGFTFSNAWMSWVRQAPGKGLEWVGHIKSKTDGGTTDYAAPVKGRFTISRDDSKNTLYLQMNSLKTEDTAVYYCTREPYYFDYWGQGTLVTVSS
VL: [gap - about 100 residues]GQGTKLEIKR
notes: also called mAb 540
With B2, the Kd (commonly the free concentration of one partner at which half of the binding sites on the other are occupied at equilibrium, for simple one-to-one binding) in experiment [2] was determined as 0.905 nM; in experiment [3] it was 0.122 nM.

B3: antibody 540 (antibody, V domains shown)
VH: EVQLVESGGGLVKPGGSLRLSCAASGFTFSNAWMSWVRQAPGKGLEWVGHIKSKTDGGTTDYAAPVKGRFTISRDDSKNTLYLQMNSLKTEDTAVYYCTREPYYFDYWGQGTLVTVSS
VL: [gap - about 100 residues]GQGTKLEIKR
notes: also called mAb 540
As for B3, the kon (in general, the second-order rate constant of association) in experiment [4] was 92500 M⁻¹ s⁻¹.
